This note sets out measurements from patent US20220033460A1, “IDENTIFICATION AND USE OF T CELL EPITOPES IN DESIGNING DIAGNOSTIC AND THERAPEUTIC APPROACHES FOR COVID-19” (priority 2020, published 2022).

In the assay the test system is CD8+ T cells. Format: cell-based, human. The settings on record: cells of the TCR clonotype specific for the epitope / HLA class I of the same line.

B1: TCR_81: TCR to … / A*02:01 (protein)
TCR alpha: AQKITQTQPGMFVQEKEAVTLDCTYDTSDQSYGLFWYKQPSSGEMIFLIYQGSYDEQNATEGRYSLNFQKARKSANLVISASQLGDSAMYFCAMRDSNSNSGYALNFGKGTSLLVTPHIQNPDPAVYQLRDSKSSDKSVCLFTDFDSQTNVSQSKDSDVYITDKTVLDMRSMDFKSNSAVAWSNKSDFACANAFNNSIIPEDTFFPSPESSCDVKLVEKSFETDTNLNFQNLSVIGFRILLLKVAGFNLLMTLRLWSS
TCR beta: DAEITQSPRHKITETGRQVTLACHQTWNHNNMFWYRQDLGHGLRLIHYSYGVQDTNKGEVSDGYSVSRSNTEDLPLTLESAASSQTSVYFCASSDGHQGLQETQYFGPGTRLLVLEDLKNVFPPKVAVFEPSEAEISHTQKATLVCLATGFYPDHVELSWWVNGKEVHSGVSTDPQPLKEQPALNDSRYCLSSRLRVSATFWQNPRNHFRCQVQFYGLSENDEWTQDRAKPVTQIVSAEAWGRADCGFTSESYQQGVLSATILYEILLGKATLYAVLVSALVLMAMVKRKDSRG
For B1, the “No. of Cells” value was found to be 2.

B2: TCR_73: TCR to … / A*24:02 (protein)
TCR alpha: KDQVFQPSTVASSEGAVVEIFCNHSVSNAYNFFWYLHFPGCAPRLLVKGSKPSQQGRYNMTYERFSSSLLILQVREADAAVYYCAVEGNYGGSQGNLIFGKGTKLSVKPNIQNPDPAVYQLRDSKSSDKSVCLFTDFDSQTNVSQSKDSDVYITDKTVLDMRSMDFKSNSAVAWSNKSDFACANAFNNSIIPEDTFFPSPESSCDVKLVEKSFETDTNLNFQNLSVIGFRILLLKVAGFNLLMTLRLWSS
TCR beta: GITQSPKYLFRKEGQNVTLSCEQNLNHDAMYWYRQDPGQGLRLIYYSQIVNDFQKGDIAEGYSVSREKKESFPLTVTSAQKNPTAFYLCASSINPSSYNEQFFGPGTRLTVLEDLKNVFPPKVAVFEPSEAEISHTQKATLVCLATGFYPDHVELSWWVNGKEVHSGVSTDPQPLKEQPALNDSRYCLSSRLRVSATFWQNPRNHFRCQVQFYGLSENDEWTQDRAKPVTQIVSAEAWGRADCGFTSESYQQGVLSATILYEILLGKATLYAVLVSALVLMAMVKRKDSRG
As for B2, the “No. of Cells” value is 2.

B3: TCR_74: TCR to … / A*02:01 (protein)
TCR alpha: RKEVEQDPGPFNVPEGATVAFNCTYSNSASQSFFWYRQDCRKEPKLLMSVYSSGNEDGRFTAQLNRASQYISLLIRDSKLSDSATYLCVVNYDTDKLIFGTGTRLQVFPNIQNPDPAVYQLRDSKSSDKSVCLFTDFDSQTNVSQSKDSDVYITDKTVLDMRSMDFKSNSAVAWSNKSDFACANAFNNSIIPEDTFFPSPESSCDVKLVEKSFETDTNLNFQNLSVIGFRILLLKVAGFNLLMTLRLWSS
TCR beta: EPEVTQTPSHQVTQMGQEVILRCVPISNHLYFYWYRQILGQKVEFLVSFYNNEISEKSEIFDDQFSVERPDGSNFTLKIRSTKLEDSAMYFCATGGLNTGELFFGEGSRLTVLEDLKNVFPPKVAVFEPSEAEISHTQKATLVCLATGFYPDHVELSWWVNGKEVHSGVSTDPQPLKEQPALNDSRYCLSSRLRVSATFWQNPRNHFRCQVQFYGLSENDEWTQDRAKPVTQIVSAEAWGRADCGFTSESYQQGVLSATILYEILLGKATLYAVLVSALVLMAMVKRKDSRG
Regarding B3, the “No. of Cells” value worked out at 2.

B4: TCR_79: TCR to … / A*02:01 (protein)
TCR alpha: QKEVEQNSGPLSVPEGAIASLNCTYSDRVSQSFFWYRQYSGKSPELIMSIYSNGDKEDGRFTAQLNKASQYVSLLIRDSQPSDSATYLCAVNRDDKIIFGKGTRLHILPNIQNPDPAVYQLRDSKSSDKSVCLFTDFDSQTNVSQSKDSDVYITDKTVLDMRSMDFKSNSAVAWSNKSDFACANAFNNSIIPEDTFFPSPESSCDVKLVEKSFETDTNLNFQNLSVIGFRILLLKVAGFNLLMTLRLWSS
TCR beta: GVSQDPRHKITKRGQNVTFRCDPISEHNRLYWYRQTLGQGPEFLTYFQNEAQLEKSRLLSDRFSAERPKGSFSTLEIQRTEQGDSAMYLCASSPDIEQFFGPGTRLTVLEDLKNVFPPKVAVFEPSEAEISHTQKATLVCLATGFYPDHVELSWWVNGKEVHSGVSTDPQPLKEQPALNDSRYCLSSRLRVSATFWQNPRNHFRCQVQFYGLSENDEWTQDRAKPVTQIVSAEAWGRADCGFTSESYQQGVLSATILYEILLGKATLYAVLVSALVLMAMVKRKDSRG
Take B4: the “No. of Cells” value came out at 2.
